According to PMC6269977, “Chemistry and Antiviral Activity of Arrabidaea pulchra (Bignoniaceae)” (Molecules, 2013):

Test system: Dengue virus 2 (DENV-2)
Format: cell-based
Details: selective index, CC50 over EC50; against LLCMK2 cells

## C[C@@H]1O[C@@H](O[C@@H]2[C@@H](O)[C@H](OCCc3ccc(O)c(O)c3)O[C@H](CO)[C@H]2OC(=O)/C=C/c2ccc(O)c(O)c2)[C@H](O)[C@H](O)[C@H]1O [AP 1, verbascoside]
  SI (DENV-2): 3.8

## C[C@H]1[C@H](C)CC[C@]2(C(=O)O)CC[C@]3(C)C(=CC[C@@H]4[C@@]5(C)CC[C@H](O)C(C)(C)[C@@H]5CC[C@]43C)[C@H]12 [AP 3, ursolic acid]
  SI (DENV-2): 3.1
